Data as given in patent US20240109955A1 (published 2024).

Molecular target: SARS-CoV-2 spike protein, original Wuhan strain (WT) (SARS-CoV-2, UniProt P0DTC2 14-1273)
Experiment: cell-based or functional assay

B1: A19-61.1 (antibody, V domains shown)
VH: QVQLVESGGGVVQPGRSLRLSCAASGFTFSSYAFHWVRQAPGKGLEWVAVISYDGSNQYYADSVKGRFTISRDNSKNTLYLQMNSLRADDTAVYYCARDLAIAVAGTWHYYNGMDVWGQGTTVTVSS
VL: DIQMTQSPSSVSASVGDRVIITCRASQGISSWLAWYQQKPGKAPKVLIYDASSLQSGVPSRFSGSGYGTDFTLTISSLQPEDSATYYCQQAKSFPITFGQGTRLEIK
IC80, pseudovirus neutralization: 0.408 nM
